From publication PMC5679670, “The helicase DinG responds to stress due to DNA double strand breaks” (PLoS ONE, 2017) come the findings set out here.

For at least one entry, the source does not settle the construct or the ends of the probe. At least one verdict was read from the data and is not stated in words by the source. Protein sequences can lack the tags named with them.

In the series the target is T1, DinGNm (Neisseria meningitidis MC58) (UniProt Q9K181).
T1 sequence (looked up, limits assumed): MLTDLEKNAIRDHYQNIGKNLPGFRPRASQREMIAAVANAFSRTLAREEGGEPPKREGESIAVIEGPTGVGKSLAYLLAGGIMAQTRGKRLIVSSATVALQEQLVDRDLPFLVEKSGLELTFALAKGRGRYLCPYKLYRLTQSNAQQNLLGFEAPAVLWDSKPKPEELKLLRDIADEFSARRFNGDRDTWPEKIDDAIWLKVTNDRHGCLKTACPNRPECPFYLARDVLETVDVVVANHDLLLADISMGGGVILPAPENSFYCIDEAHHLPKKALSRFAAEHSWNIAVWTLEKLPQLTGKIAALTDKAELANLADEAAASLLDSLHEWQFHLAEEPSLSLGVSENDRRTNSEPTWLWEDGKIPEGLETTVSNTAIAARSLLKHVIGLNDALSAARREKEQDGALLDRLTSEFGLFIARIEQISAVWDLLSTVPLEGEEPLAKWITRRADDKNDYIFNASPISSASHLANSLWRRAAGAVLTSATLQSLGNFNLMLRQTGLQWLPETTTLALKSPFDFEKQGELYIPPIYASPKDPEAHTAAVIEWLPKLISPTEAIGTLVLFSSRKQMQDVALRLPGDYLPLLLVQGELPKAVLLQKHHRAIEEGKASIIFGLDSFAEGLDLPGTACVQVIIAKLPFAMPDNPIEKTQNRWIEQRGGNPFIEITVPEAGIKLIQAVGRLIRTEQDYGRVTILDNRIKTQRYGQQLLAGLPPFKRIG
Description: EMSA. The conditions noted are these: protein titration, curve only in figure; EMSA: 40 mM Tris-HCl pH 8, 2.5 mM EDTA, 2 mM MgCl2, 6% glycerol, 2 mM DTT, 0.1 nM 32P-DNA, 15 min on ice; 5% native PAGE in ice bath; recombinant protein; protein details: C-terminal 6xHis; label: 32P; single-stranded DNA. Background: A gel shift assay detects complexes by their altered migration in electrophoresis.

Regarding “TTTTTTTTTTTTTTTTTTTTTTTTTTTTTTTTTTTTTTTTTTTTTTTTTTTTTTTTTTTTTTTTTTTTTTTTTTTTTTTTTTTTTTTTTTTTTTTTTTTT [poly dT100]”, the binding result is “binds”.
